Assay results from US20240309004A1, “SELECTIVE CYCLIN-DEPENDENT KINASE INHIBITORS AND METHODS OF THERAPEUTIC USE THEREOF” (ViroKyne Therapeutics, LLC, priority 2021, published 2024).

Columns and labels:
[1] = tested on: Human papillomavirus 11 strain HE611260.1; assay: Human papillomavirus 11 primary assay (replicon), C-33 A cells; assay type: cell-based; details: for SI50: CC50/EC50, HPV11 primary assay; for SI90: selectivity index at EC90, HPV11 primary assay
Description: An HPV11 replicon assay was developed and expresses the essential E1 and E2 proteins from the native promoter. The E2 origin binding protein interacts with the virus origin of replication and recruits the E1 replicative helicase which unwinds the DNA and helps to recruit the cellular DNA replication machinery (including DNA polymerases, type I and type II topoisomerases, DNA ligase, single-stranded DNA binding proteins, proliferating cell nuclear antigen). The replication complex then drives the amplification of the replicon which can be assessed by the expression of a destabilized NanoLuc reporter gene carried on the replicon. In this assay, the replicon (pMP619) is transfected into C-33 A cells grown as monolayers in 384-well plates. At 48 h post transfection, the enzymatic activity of the destabilized NanoLuc reporter is assessed with NanoGlo reagent. […] . Beadle et al., 2016.

HCMV strain AD169 = assay: HCMV primary assay (CPE), strain AD169, HFF cells; assay type: cell-based, Human Cytomegalovirus; details: for SI50: CC50/EC50; for SI90: selectivity index at EC90
Protocol: The antiviral activity of the compound against HCMV in the described Primary assay was measured by treating primary Human foreskin fibroblast (HFF) cells infected with HCMV with a range of compound concentrations—description of methods for this assay can be found in section 1.3.2.1. […] . Additional tested assay parameters in this Primary assay can be found in Table 3.2.1 and include EC90, S150, and S190 values—descriptions of those data points can be found in section 3.2.1.

Murine CMV strain Smith = assay: Murine CMV primary assay, strain Smith, MEF cells; assay type: cell-based, Mouse Cytomegalovirus
[2] = tested on: Adenovirus Adenoid75 strain; assay: Adenovirus primary assay, Adenoid75 strain, HFF cells; assay type: cell-based; details: for SI50: CC50/EC50; for SI90: selectivity index at EC90
[3] = tested on: Guinea pig CMV strain 22122; assay: Guinea pig CMV primary assay, strain 22122, GP lung cells; assay type: cell-based, guinea pig cytomegalovirus; details: Guinea pig CMV primary assay, 22122, GP lung cells; for SI50: CC50/EC50; for SI90: selectivity index at EC90
[4] = tested on: Guinea pig CMV strain 22122; assay: Guinea pig CMV secondary assay, strain 22122, GP lung cells; assay type: cell-based, guinea pig cytomegalovirus; details: Guinea pig CMV secondary assay, 22122, GP lung cells; for SI50: CC50/EC50; for SI90: selectivity index at EC90
[5] = tested on: VZV strain 15-6-001 resistant isolate; assay type: cell-based, Varicella Zoster Virus; details: VZV 15-6-001 resistant isolate, HFF
Protocol: (§1) Assays were performed in monolayers as described. […] Toxicity was measured using CTG as above. […] Toxicity was measured using CTG as above.
(§2) Monolayers of HFF cells were prepared in six-well plates and incubated at 37° C. for 2 d to allow the cells to reach confluency. Media was then aspirated from the wells and 0.2 mL of virus-containing solution was added to each of three wells to yield 20-30 plaques in each well. The virus was allowed to adsorb to the cells for 1 h and the plates were agitated every 15 minutes. Compounds were diluted in assay media consisting of MEM with Earl's salts supplemented with 2% FBS, glutamine, penicillin, and gentamycin. Diluted drug was added to duplicate wells and the plates were incubated for various times, depending on the virus used. For HSV-1 and -2, the monolayers were then stained with 1% crystal violet in 20% methanol and the unbound dye removed by washing with dH20. For all other assays, the cell monolayer was stained with 1% Neutral Red solution for 4-6 h then the stain was aspirated and the cells were washed with PBS.

HSV2 strain G = assay: HSV2 primary assay, strain G, HFF cells; assay type: cell-based, herpes simplex virus 2; details: for SI50: CC50/EC50; for SI90: selectivity index at EC90
Protocol: as §1, §2

VZV strain Ellen = assay: VZV primary assay, strain Ellen, HFF cells; assay type: cell-based, Varicella Zoster Virus; details: for SI50: CC50/EC50; for SI90: selectivity index at EC90
Protocol: as §1, §2

HSV1 strain E-377 = assay: HSV1 primary assay, strain E-377, HFF cells; assay type: cell-based, Herpes Simplex Virus 1; details: for SI50: CC50/EC50; for SI90: selectivity index at EC90
Protocol: as §1, §2

Structure (SMILES) | SI50 [1] | SI90 [1] | SI50 (HCMV strain AD169) | SI90 (HCMV strain AD169) | SI50 [2] | SI90 [2] | other results
Fc1ccc2c(c1)nn1cnc(NC3CCOCC3)cc21 [VKT-320, 7-fluoro-N-(tetrahydro-2H-pyran-4-yl)pyrimido[1,6-b]indazol-3-amine] | 6 µM | 3 µM | 4 µM | 4 µM |  |  | 
Nc1nc2c(ncn2CCOCP(=O)(O)O)c(=O)[nH]1 [9-[2-phosohono-methoxy)ethyl]guanine, reference compound] | 4 µM | 4 µM |  |  |  |  | 
Fc1ccc2c(c1)nn1cnc(NC3CCNCC3)cc21 [VKT-319, 7-fluoro-N-(piperidin-4-yl)pyrimido[1,6-b]indazol-3-amine] |  |  | 4 µM | 4 µM |  |  | 
Nc1nc(O)c2ncn(COC(CO)CO)c2n1 [Ganciclovir, ganciclovir, reference compound] |  |  | 84 µM | 26 µM |  |  | SI50 (Murine CMV strain Smith; CC50/EC50): 27 µM; SI90 (Murine CMV strain Smith; selectivity index at EC90): 6 µM
Nc1ccn(C[C@@H](CO)OCP(=O)(O)O)c(=O)n1 [Cidofovir, reference compound] |  |  |  |  | 31 µM | 1 µM | SI50 [3]: 148 µM; SI90 [3]: 128 µM; SI50 [4]: 36 µM; SI90 [4]: 28 µM; SI50 ([5]; CC50/EC50): 101 µM; SI90 ([5]; selectivity index at EC90): 4 µM
NC(=O)CN1CCC(Nc2cc3c4ccc(F)cc4nn3cn2)CC1 [VKT-026] | 3 µM | 3 µM | 18 µM | 3 µM | 3 µM | 2 µM | SI50 (HSV2 strain G): 3 µM; SI90 (HSV2 strain G): 3 µM; SI50 (VZV strain Ellen): 2 µM; SI90 (VZV strain Ellen): 2 µM; SI50 [3]: 1 µM; SI90 [3]: 1 µM; SI50 [4]: 4 µM; SI90 [4]: 1 µM; SI50 (HSV1 strain E-377): 4 µM; SI90 (HSV1 strain E-377): 4 µM
CC(C)(C)OC(=O)N[C@@H]1CC[C@H](Nc2cc3c4ccc(F)cc4nn3cn2)C1 [VKT-033] |  |  | 4 µM | 4 µM | 3 µM | 3 µM | SI50 (HSV2 strain G): 2 µM; SI90 (HSV2 strain G): 2 µM; SI50 (VZV strain Ellen): 2 µM; SI90 (VZV strain Ellen): 2 µM; SI50 (HSV1 strain E-377): 2 µM; SI90 (HSV1 strain E-377): 2 µM
N[C@H]1CC[C@H](Nc2cc3c4ccc(F)cc4nn3cn2)CC1 [VKT-511, (1r,4r)-N1-(7-fluoropyrimido[1,6-b]indazol-3-yl)cyclohexane-1,4-diamine] |  |  | 3 µM | 3 µM |  |  | 
